Data as given in PubChem BioAssay AID504761 (Drosophila RNAi Screening Center, 2011).
Purpose: 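Genome-wide fly cell screen for genes dengue virus requires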 (primary screen). Cells: D.Mel-2 cells from Drosophila. Reagent: long dsRNA against Drosophila genes. Challenge: infection with dengue virus type 2; dose and infection time not stated. Measured: 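Per well on two replicate plates, imaging gave the percent of cells positive for viral envelope protein, ranked by infection, and a nuclear count of cells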. Reading the numbers: infection score: higher = more virus-infected cells; cell count: higher = more cells in the well. Rule for the call: 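Low infection ranks in the two replicates (chance level up to 0.065) followed by a retest with a 1.5-fold or larger significant decrease, p below 0.05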. Calls: active = confirmed: knock-down lowers infection; inactive = not picked or not confirmed.
The screen tested about 22,000 reagents; shown is a random part of those that have a named target and a result. In the full data, 116 (0.52%) are marked active. 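Calls depend on retest data that are not deposited; infection was ranked per plate without normalising between plates; the unit of the infection score is not given.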 Raw values are not corrected between plates. Not stated in the record: the amount of reagent, the time to read-out.

| target | dsRNA | infection score, replicate 1 | infection score, replicate 2 | cell count, replicate 1 | cell count, replicate 2 | call |
| --- | --- | --- | --- | --- | --- | --- |
| klg (klingon) | DRSC13591 | 1.2 | 0.08 | 6436 | 6083 | inactive |
| klg (klingon) | DRSC16978 | 1.98 | 12.7 | 6378 | 5506 | inactive |
| CG13794 | DRSC02298 | 12.2 | 0.8 | 6255 | 628 | inactive |
| CG13794 | DRSC25419 | 11.7 | 15.3 | 6005 | 5760 | inactive |
| Unc50 (Unc50 RNA binding protein) | DRSC16561 | 8.95 | 13.7 | 6011 | 5426 | inactive |
| Unc50 (Unc50 RNA binding protein) | DRSC28560 | 5.44 | 19.8 | 1397 | 5200 | inactive |
| nSMase (neutral sphingomyelinase) | DRSC08237 | 3.65 | 14.4 | 6678 | 6223 | inactive |
| CG16749 | DRSC15146 | 2.69 | 15.1 | 6613 | 6462 | inactive |
| CG16749 | DRSC25605 | 4.35 | 3.74 | 5534 | 5398 | inactive |
| CG33462 | DRSC22902 | 1.63 | – | 6767 | 411 | inactive |
| SIFa (SIFamide) | DRSC04480 | 6.55 | 3.96 | 5953 | 6639 | inactive |
| CG9632 | DRSC16528 | 12.6 | 24.1 | 6457 | 4715 | inactive |
| Arc2 (Activity-regulated cytoskeleton associated protein 2) | DRSC06436 | 10.7 | 6.39 | 6277 | 6963 | inactive |
| Arc2 (Activity-regulated cytoskeleton associated protein 2) | DRSC28707 | 8.25 | 7.3 | 5408 | 5398 | inactive |
| Cad88C (Cadherin 88C) | DRSC15486 | 1.34 | 19.9 | 6638 | 4684 | inactive |
| Cad88C (Cadherin 88C) | DRSC26126 | 7.63 | 7.62 | 3630 | 5747 | inactive |
| CG11986 | DRSC14461 | 4.19 | 6.12 | 6496 | 6715 | inactive |
| CG11986 | DRSC24504 | 10 | 10.8 | 6288 | 6051 | inactive |
| mRpL52 (mitochondrial ribosomal protein L52) | DRSC06585 | 10.5 | 14.7 | 6605 | 6227 | inactive |
| lectin-30A | DRSC02560 | 1.52 | 3.82 | 6571 | 6414 | inactive |
| ITP (Ion transport peptide) | DRSC04222 | 6.43 | 7.51 | 6038 | 6642 | inactive |
| CG5986 | DRSC15931 | 1.92 | 1.89 | 6051 | 6077 | inactive |
| CG5986 | DRSC24247 | 6.13 | 1.73 | 6918 | 3242 | inactive |
| CG32563 | DRSC19934 | 16 | 3.77 | 5486 | 6919 | inactive |
| CG32563 | DRSC29716 | 5.28 | 8.96 | 6423 | 5957 | inactive |
| CG3942 | DRSC15525 | 1.88 | 5.88 | 6720 | 6731 | inactive |
| CG3942 | DRSC26921 | 15.3 | 2.56 | 5649 | 6300 | inactive |
| CG8854 | DRSC07288 | 9.03 | 5.8 | 5992 | 6656 | inactive |
| CG8854 | DRSC24639 | 5.72 | 3.29 | 6331 | 5831 | inactive |
| smid (smallminded) | DRSC11398 | 3.96 | 3.39 | 6065 | 5460 | inactive |
| smid (smallminded) | DRSC28019 | 34 | 29.1 | 4041 | 5209 | inactive |
| CG10513 | DRSC14248 | 1.88 | 5.49 | 6489 | 6563 | inactive |
| lqf (liquid facets) | DRSC11363 | 1.4 | 1.85 | 5702 | 5882 | active |
| lqf (liquid facets) | DRSC27882 | 13.7 | 2.43 | 3986 | 5605 | inactive |
| CG30356 | DRSC05119 | 2.63 | 2.54 | 6350 | 5788 | inactive |
| Slik (Sterile20-like kinase) | DRSC04471 | 15.6 | 12.5 | 6358 | 6726 | inactive |
| Slik (Sterile20-like kinase) | DRSC29219 | 10.9 | – | 2633 | 364 | inactive |
| sens-2 (senseless-2) | DRSC02613 | 3.21 | 7.68 | 6289 | 5846 | inactive |
| sens-2 (senseless-2) | DRSC25026 | 4.87 | 6.68 | 5940 | 5662 | inactive |
| CG30265 | DRSC21592 | 48 | 9.4 | 5388 | 1159 | inactive |
| hwt (heavyweight) | DRSC19386 | 6.14 | 2.91 | 6633 | 6712 | inactive |
| hwt (heavyweight) | DRSC23728 | 3.94 | 7.15 | 6138 | 1776 | inactive |
| hwt (heavyweight) | DRSC25353 | 1.73 | 3.26 | 6082 | 6252 | inactive |
| Vml (Vitelline membrane-like) | DRSC17695 | 3.24 | 0.89 | 6355 | 6502 | inactive |
| Vml (Vitelline membrane-like) | DRSC18529 | 0.9 | 3.87 | 6354 | 6130 | inactive |
| Vml (Vitelline membrane-like) | DRSC28030 | 0.2 | – | 492 | 453 | inactive |
| Vml (Vitelline membrane-like) | DRSC29208 | – | 20.3 | 393 | 5410 | inactive |
| CG8435 | DRSC07179 | 19.7 | 14.4 | 4177 | 4246 | inactive |
| CG8435 | DRSC29713 | 18.3 | 10.4 | 5920 | 5608 | inactive |
| CG8586 | DRSC07218 | 10.2 | 6.3 | 5939 | 6489 | inactive |
| eEF2 (eukaryotic translation elongation factor 2) | DRSC03737 | 1.28 | 3 | 1715 | 1864 | inactive |
| Pldn (Pallidin) | DRSC10137 | 1.53 | 3.77 | 5881 | 6497 | inactive |
| Pldn (Pallidin) | DRSC28270 | 25.7 | 13.7 | 4417 | 5031 | inactive |
| CG11406 | DRSC04010 | 1.21 | 0.32 | 6112 | 5598 | inactive |
| CG11406 | DRSC04108 | 1.5 | 5.74 | 6210 | 6189 | inactive |
| ord (orientation disruptor) | DRSC04706 | 5.49 | 16.5 | 1422 | 5057 | inactive |
| CG5958 | DRSC02915 | 1.19 | 5.35 | 6282 | 6321 | inactive |
| CG32773 (retired record) | DRSC17330 | 3.42 | 2.18 | 6412 | 6205 | inactive |
| BomBc3 (Bomanin Bicipital 3) | DRSC15873 | 5.07 | 0.58 | 5921 | 6674 | inactive |
| BomBc3 (Bomanin Bicipital 3) | DRSC29503 | – | – | 284 | 353 | inactive |
| CG11068 | DRSC19369 | 1.9 | 0.94 | 6008 | 7024 | inactive |
| Vps52 (Vacuolar protein sorting 52) | DRSC03050 | 4.86 | 3.57 | 6272 | 6558 | inactive |
| CG6511 | DRSC10656 | 2.85 | 1.11 | 6657 | 6388 | inactive |
| CG16826 | DRSC02527 | 2.71 | 3.19 | 6946 | 6645 | inactive |
| Teh2 (tipE homolog 2) | DRSC08458 | 2.71 | 3.19 | 6020 | 5805 | inactive |
| Teh2 (tipE homolog 2) | DRSC29037 | 7.56 | 13.1 | 1336 | 1423 | inactive |
| Veneno | DRSC16537 | 3.31 | 2.86 | 6437 | 6859 | inactive |
| InR (Insulin-like receptor) | DRSC16717 | 4.04 | 5.35 | 6898 | 3383 | inactive |
| Mms19 | DRSC12188 | 2.59 | 13.4 | 6652 | 6301 | inactive |
| Mms19 | DRSC27172 | 8.31 | 25.4 | 6934 | 6513 | inactive |
| Hsp60A (Heat shock protein 60A) | DRSC20254 | 3.05 | 2.09 | 6073 | 6121 | inactive |
| CG7407 | DRSC11824 | 3.46 | 7.03 | 6501 | 6459 | inactive |
| Gem3 (Gemin 3) | DRSC11144 | 2.84 | 2.99 | 6159 | 5581 | inactive |
| Ptp99A (Protein tyrosine phosphatase 99A) | DRSC13939 | 2.19 | 1.96 | 6199 | 6277 | inactive |
| Ptp99A (Protein tyrosine phosphatase 99A) | DRSC14319 | 21.4 | 0.26 | 4451 | 384 | inactive |
| Ptp99A (Protein tyrosine phosphatase 99A) | DRSC14320 | 15.1 | 7 | 5255 | 2841 | inactive |
| Ptp99A (Protein tyrosine phosphatase 99A) | DRSC16803 | 4.61 | 6.35 | 3557 | 6443 | inactive |
| Ptp99A (Protein tyrosine phosphatase 99A) | DRSC22125 | 1.4 | 4.15 | 6428 | 6971 | inactive |
| Ptp99A (Protein tyrosine phosphatase 99A) | DRSC22477 | 3.77 | 14.4 | 6125 | 5420 | inactive |
| Ptp99A (Protein tyrosine phosphatase 99A) | DRSC23033 | 2.6 | 3.54 | 6425 | 6702 | inactive |

Quoted from above for reference:
| target | dsRNA | infection score, replicate 1 | infection score, replicate 2 | cell count, replicate 1 | cell count, replicate 2 | call |
| --- | --- | --- | --- | --- | --- | --- |
| CG8854 | DRSC07288 | 9.03 | 5.8 | 5992 | 6656 | inactive |
| CG8854 | DRSC24639 | 5.72 | 3.29 | 6331 | 5831 | inactive |
| smid (smallminded) | DRSC11398 | 3.96 | 3.39 | 6065 | 5460 | inactive |
| smid (smallminded) | DRSC28019 | 34 | 29.1 | 4041 | 5209 | inactive |
| CG10513 | DRSC14248 | 1.88 | 5.49 | 6489 | 6563 | inactive |
| lqf (liquid facets) | DRSC11363 | 1.4 | 1.85 | 5702 | 5882 | active |
| lqf (liquid facets) | DRSC27882 | 13.7 | 2.43 | 3986 | 5605 | inactive |
| CG30356 | DRSC05119 | 2.63 | 2.54 | 6350 | 5788 | inactive |
| Slik (Sterile20-like kinase) | DRSC04471 | 15.6 | 12.5 | 6358 | 6726 | inactive |
| Slik (Sterile20-like kinase) | DRSC29219 | 10.9 | – | 2633 | 364 | inactive |
| sens-2 (senseless-2) | DRSC02613 | 3.21 | 7.68 | 6289 | 5846 | inactive |
